Data reported in publication PMC10913437.
For at least one entry, the source does not settle the construct or the ends of the probe.

The chains behind the UniProt entries cited, without tags or fusion partners. Where a name states a change or a piece, a line headed by the entry shows the natural chain unless it says otherwise.
UniProt Q2G1N7: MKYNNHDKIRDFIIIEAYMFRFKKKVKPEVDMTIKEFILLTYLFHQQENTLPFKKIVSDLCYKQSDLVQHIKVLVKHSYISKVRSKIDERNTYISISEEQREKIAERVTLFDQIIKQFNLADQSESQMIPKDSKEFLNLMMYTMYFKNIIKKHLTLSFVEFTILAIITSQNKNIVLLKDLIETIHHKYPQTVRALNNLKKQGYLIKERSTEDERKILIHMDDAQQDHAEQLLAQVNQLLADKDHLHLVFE

Molecular target: SarS (rSarS, MW2 type) (Staphylococcus aureus JP018 (same SarS as MW2)) (UniProt Q2G1N7)
Assay: EMSA
Details: recombinant protein; residues 1-250; protein details: His-tag (pET24b); label: Cy3 (5' on T7 promoter-1 primer); probe letters rebuilt from the primers and the genome; part of a longer molecule

GACAGGAAGCATACTGCAAGTGAAGTTGGGAAGTGTTGTTAATACCAAGTAAGTAAGATATCTGAAATGTATAATAGAGTAAAAATGAAATCTTTTTATTATAGACAAATATAAAAAGTGTATAGTAATATATGTATGTATAATTAAATGATAATCATTTCATAATTATTGTATATAACTAAATAACTACTTAACAAAAATAATTATGCTTTAGAGGTGAGCAAA (double strand) [sea promoter 1 probe]
binding result: binds
